From patent US6368788B1 (priority 1987, dated 2002)

Tested on: Mycobacterium tuberculosis
Set-up: species or system human
Settings: in vivo

L-Glu-L-Trp
Toxicity or allergic reactions: no toxicity or allergic reactions were observed
